Earlier results, collected in article PMC8943039.

Amino acid sequences for entries named in this document (tags omitted). Residues count along the entry.
UniProt Q496J9, 473-567: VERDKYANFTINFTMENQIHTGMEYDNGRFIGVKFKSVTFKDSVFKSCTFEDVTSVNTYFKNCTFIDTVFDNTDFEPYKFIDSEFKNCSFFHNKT

Biological target: SV2C luminal domain (Homo sapiens) (UniProt Q496J9)

In the case of “BoNT/A1 receptor-binding domain RBD (from UniProt P0DPI1)”, the Kd is given as 260 nM.
